# Test results as given in article doi:10.1101/2024.08.25.609621 (bioRxiv, 2024).
# Where “and” joins values, the source holds several entries; their conditions need not be identical. Equal entries are not always repeated.
# Columns and labels:
# [1] = target: SARS-CoV-2 NSP3 macrodomain (Mac1), P43 crystal form (Severe acute respiratory syndrome coronavirus 2, UniProt P0DTD1)
# [2] = target: SARS-CoV-2 NSP3 macrodomain (Mac1) (Severe acute respiratory syndrome coronavirus 2, UniProt P0DTD1)
structure (smiles),measurement,setting,value
"Cc1c[nH]c2ncnc(NCC3(O)CCCCC3)c12 [AVI-3761, 1-(((5-methyl-7H-pyrrolo[2,3-d]pyrimidin-4-yl)amino)methyl)cyclohexan-1-ol]",1-BDC,[1],0.2
same,"1-BDC (PanDDA run, DMSO background map)",[1],0.2 and 0.19
same,2*(1-BDC) (%),[1],40%
same,Binding site,[1],Adenosine
same,"Hit (PanDDA run, DMSO background map)",[1],TRUE
same,"Hit (PanDDA run, overall)",[1],TRUE
same,Refined ligand occupancy (%),[1],60%
same,Total number of conformations,[1],1
same,X-ray crystal structure,[1],TRUE
same,Hill slope,[2],1.1
same,Hillslope,[2],1.1
